These results are taken from ChEMBL document CHEMBL4354878, “Structure-Based Bioisosterism Yields HIV-1 NNRTIs with Improved Drug-Resistance Profiles and Favorable Pharmacokinetic Properties” (J Med Chem, 2020).

SMILES strings stand for the structures.

Test [1] concerns the target Human immunodeficiency virus type 1 reverse transcriptase (Human immunodeficiency virus 1, UniProt Q72547, K103N). The experiment in a line: Inhibition of HIV1 RT K103N mutant in presence of reconstituted template and viral nucleotides [digoxigenin (DIG)-dUTP, biotin-dUTP and dTTP] incubated for 1 hr by ELISA method. A general note: An ELISA detects its analyte on a solid surface through an enzyme-linked reagent.

Test [2] concerns the target Human immunodeficiency virus type 1 reverse transcriptase (Human immunodeficiency virus 1, UniProt Q72547, Y181C). The experiment in a line: Inhibition of HIV1 RT Y181C mutant in presence of reconstituted template and viral nucleotides [digoxigenin (DIG)-dUTP, biotin-dUTP and dTTP] incubated for 1 hr by ELISA method.
Test [3] addresses Human immunodeficiency virus type 1 reverse transcriptase (Human immunodeficiency virus 1, UniProt Q72547, L100I). The experiment in a line: Inhibition of HIV1 RT L100I mutant in presence of reconstituted template and viral nucleotides [digoxigenin (DIG)-dUTP, biotin-dUTP and dTTP] incubated for 1 hr by ELISA method.
Test [4] deals with Human immunodeficiency virus type 1 reverse transcriptase (Human immunodeficiency virus 1, UniProt Q72547). Put plainly: Inhibition of HIV1 RT in presence of reconstituted template and viral nucleotides [digoxigenin (DIG)-dUTP, biotin-dUTP and dTTP] incubated for 1 hr by ELISA method.
For test [5], the target named is Human immunodeficiency virus type 1 reverse transcriptase (Human immunodeficiency virus 1, UniProt Q72547, Y188L). The experiment in a line: Inhibition of HIV1 RT Y188L mutant in presence of reconstituted template and viral nucleotides [digoxigenin (DIG)-dUTP, biotin-dUTP and dTTP] incubated for 1 hr by ELISA method.
The target in test [6] is Human immunodeficiency virus type 1 reverse transcriptase (Human immunodeficiency virus 1, UniProt Q72547, E138K). The experiment in a line: Inhibition of HIV1 RT E138K mutant in presence of reconstituted template and viral nucleotides [digoxigenin (DIG)-dUTP, biotin-dUTP and dTTP] incubated for 1 hr by ELISA method.

Turning to `Cc1cc(C#N)cc(C)c1Oc1nc(Nc2ccc(C#N)cc2)nc(N)c1Br` [ETRAVIRINE], the IC50 was 25 nM in test [1]; 17 nM in test [2]; 13 nM in test [3]; 12 nM in test [4]; 46 nM in test [5]; 32 nM in test [6].

For orientation: IC50 means the concentration that inhibits the measured activity by half.
